From US9587171B2, “Ammonium salts of chelating agents and their use in oil and gas field applications” (AKZO NOBEL CHEMICALS INTERNATIONAL B.V., priority 2010, dated 2017)

Tested on: populations of bacteria which occur naturally in seawater
Test: Seawater biodegradation, closed bottle test OECD 306 (1992)

Compound: N.N.N.O=C(O)CC[C@@H](C(=O)O)N(CC(=O)O)CC(=O)O [triammonium GLDA, triammonium salt of GLDA]
- start of biodegradation in seawater (OECD 306 protocol (1992), FIG. 1): 14 days
- biodegraded in seawater at day 28 (closed bottle test OECD 306 (1992) modified to permit prolonged measurement, day 28): 29%
